Measurements reported in the supplement of paper PMC9931576.
Human monoclonal antibodies against the spike receptor-binding domain (heavy:light variable regions). IC50 against pseudoviruses bearing the spike of naturally observed variants; lower = stronger; >10 µg/ml means not reached at the top dose. No active / inactive call. The stated detection limit is 0.0005 µg/ml; values near or below 0.001 µg/ml lie at the floor of the assay.

B1: BD-515 (protein)
chain 1: EVQLVESGGGLVQPGGSLRLSCAASEFIVSRNYMSWVRQAPGKGLEWVSVIYSGGSTFYADSVKGRFTISRDNSKNTLYLQMNSLRAEDTGVYYCARDRGLVSDYWGQGTLVTVSS
chain 2: DIQMTQSPSSLSASVGDRVTITCQASQDINKYLNWYQQKPGKAPKLLIFDASHLETGVPSRFSASGSGTDFTFTISSLQPEDIATYYCHQYDNLPRTFGQGTRLEIK
B2: BD55-6388 (protein)
chain 1: QVQLVQSGAEVKKPGSSVKVSCKASGDTFSKYAISWVRQAPGQGLEWMGGIIPIFGKANYAQKFQGRVTITADESTSTAYMQLSSLRSEDTAEYYCATLPFYDILTGYSKYYFDYWGQGTLVTVSS
chain 2: QSALTQPASVSGSPGQSITISCTGTNSDVGGYNYVSWYQRHPGKAPKLMIYDVSNRPSGVSNRFSGSKSGNTASLTISGLQTEDEADYYCSSYTSSSISVIFGGGTKLTVL
B3: BD55-1237 (protein)
chain 1: QVQLVESGGGVVQPGRSLRLSCATSDFTSNTYGIHWVRQAPGKGLEWVAVIWSDGSHEYYADSVKGRFTISRDNSKNTVYLQMASLRPEDTALYYCAKSPWLRGSFDVWGQGTVVPVSS
chain 2: NFLLTQPHSVSESPGKTVTISCSGSSGYIASNYVQWYQQRPGSAPIVVMYEDNQRPSGVPDRFSGSIDSSSNSASLTISGLKTEDEADYYCQSYDSDNRAWVFGGGTKLTVL
B4: BD55-6383 (protein)
chain 1: QVQLVQSGSELKKPGASVKVSCKASGYTFSTYAIKWVRQAPGQGLEWMGWINTNTGNPTYAQGFTGRFVFSLDTSVSTAFLQISSLKAEDTAIYYCARVFCSGNACYDVDLWGQGTLVTISS
chain 2: QSVLTQPPSASGTPGQRVTISCSGSSSNIGSNFVYWYQHLPGAAPKVLIYRNTHRPSGVPDRFSGSKSGSSASLAISGLRSEDEADYYCAAWDDSLSGRMFGGGTKLTVL
B5: BD55-6369 (protein)
chain 1: EVQLLESGGGLVQPGGSLRLSCAASGFAFSSYAMSWVRQAPGKGLEWVSGIGGSGGLTFYADSVKGRFTISRDNSKNTLYLQMKSLRAEDTAVYYCATEARGWSDCYFDNWGQGTLVTVSS
chain 2: DIQMTQSPSSLSASVGDRVTITCRASQGIRNSLAWYQQKPGKAPKLLLFAASRLESGVPSRFSGSGSGTDYTLTISYVQPEDFATYYCQQYYVTPSITFGQGTRLEIK
B6: BD55-6377 (protein)
chain 1: EVQLLQSGGGLVQPGGSLRLSCAASGFTFSDYVFVWVRQAPGKGLEWVSAIGGSGGATFYADSVKGRFTISRDNSKNRLYLQMNSLRAEDTAVYYCAKDRSPISLVREEGFDYWGQGSLVTVSS
chain 2: DIQMTQSPSSLSASVGDRVTITCRASQFINTYLNWYQQKPGRAPKLLIYSASSLQSGVPSRFSGSGSGTDFTLTISSLQPEDFATYYCQQSFSTPPYTFGQGTKLEIK
B7: BD55-6348 (protein)
chain 1: QVQLVQSGAEVKKPGASVKVSCKASGYTFTTYDIIWLRQATGQGLEWMGWLNPNSGDTGYAHKFQGRVTMTRDTSISTAYMELSSLISEDTAVYYCAREEDNMVRGLRRFDPWGQGTLVTVSS
chain 2: DIQMTQSPSSLSASVGDRVTITCRASQSISINLNWYQQRPGKGPKLLIYGASSLQSGVPTRFSGSGSGTDFTLTISNLQSEDFATYYCQQSYSTSYTFGQGTKLEIK
B8: BD55-6366 (protein)
chain 1: EVQLVESGGGLVQPGGSLRLSCAASGFTFSNYWMSWVRQAPGKGLEWVANINQDGSEKYYVDSVKGRFTISRDNAKNSLFLQVYSLRVEDTAVYYCAAGESGRYYTEYFQHWGQGTLVTVSS
chain 2: SSELSQPPSVSVSPGQTARITCSGDALATQHAYWYQQKPGQAPVLVIYKDSARPSGIPERFSGSSSGTRGTLTIRGVQAEDEADYYCQSADSSASSYVFGTGTKVTVL
B9: BD55-6365 (protein)
chain 1: EVQLVESGGGLVQPGGSLRLSCAASGFSFSRYWMTWVRQAPGKGLEWVANIKQDGTEKYYGDSVKGRFTISRDNAKNSLSLQMNSLRADDTAVYYCAGAPVSYEILAPEWFDPWGQGTLVTVSS
chain 2: SYELTQPPSVSVSPGQTARITCSGDRVPTQYTCWYQQKPGQAPVLIIYKDNKRPSGIPERFSGSTSGTRATLTISGVQAEDEADYYCQTADSVLWVFGGGTKLTVL
B10: BD55-6373 (protein)
chain 1: QLELQESGPGLVKPSETLSLTCTVSGGSISSSDYYWGWIRQPPGKGLEWIGSIYHGWNSRHNPSLKSRVSMSVDTSKNQFSLTVTSVTAADTAVYYCARHSSVRGVIEDNWFDPWGQGTLVTVSS
chain 2: YVLTQPPSVSVAPGQTARITCGGDIIGTKSVHWYQQKPGQAPVLVVYDDSDRPSGIPERFSGSNSGNTATLTITRVEAGDEADYYCQVWDSSTGWVFGGGTKLTVL
B11: BD55-6370 (protein)
chain 1: QVQLVESGGGVVQPGRSLRLSCAASGFTFSSYSMHWVRQAPGKGLDWVAVISNDGSAKFYADSVKGRFTISRDNSKNTLYLQMNSLRAEDTAVYYCVRDAPTMITVVPLFDHWGQGTLVTVSS
chain 2: DIQMTQSPSSLSASVGDRVTISCRASQSISTYLNWYQQKPGKAPKLLIYSASSLQSGVPSRFSGSGSGTDFSLTISSLQPEDFATYYCQQSYSTLALTFGGGTKVEIK
B12: BD55-6385 (protein)
chain 1: EVQLVESGGGLVQPGGSLRLSCAASGFTLSTYWMNWVRQAPGKGLEWVANIKQDGYEKYYLDSVQGRFTISRDNAKNSLYLQMNSLRAEDTAVYYCARALDPVDCSGGSCYSDSFDYWGHGTLVTVSS
chain 2: EILLTQSPATLSLSPGERATLSCRASQSVRNYLAWYQQKPGQAPRLLIYDTSNRATGIPARFSGSGSGTDFTLTISSLEPEDFAVYYCQRRTNWPPRYTFGQGTKLEIK

biological target: SARS-CoV-2 Omicron BA.1 spike pseudovirus; assay: pseudovirus neutralization IC50; higher = weaker neutralization
Description: (§1)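 Single-round VSV luciferase pseudovirus mixed with antibody dilutions for 1 h and put on Huh-7 cells for about a day; IC50 from the dose curve.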

Binder	pseudovirus neutralization IC50
B1	0.00467 µg/mL
B2	> 10 µg/mL
B3	> 10 µg/mL
B4	> 10 µg/mL
B5	> 10 µg/mL
B6	> 10 µg/mL
B7	> 10 µg/mL
B8	> 10 µg/mL
B9	> 10 µg/mL
B10	> 10 µg/mL
B11	> 10 µg/mL
B12	> 10 µg/mL

biological target: SARS-CoV-2 Omicron BA.2 spike pseudovirus; assay: as above
Description: as §1

Binder	pseudovirus neutralization IC50
B1	0.00491 µg/mL
B2	> 10 µg/mL
B3	> 10 µg/mL
B4	> 10 µg/mL
B5	> 10 µg/mL
B6	> 10 µg/mL
B7	> 10 µg/mL
B8	> 10 µg/mL
B9	> 10 µg/mL
B10	> 10 µg/mL
B11	> 10 µg/mL
B12	0.718 µg/mL

biological target: SARS-CoV-2 Omicron BA.2.75 spike pseudovirus; assay: as above
Description: as §1

Binder	pseudovirus neutralization IC50
B1	0.208 µg/mL
B2	> 10 µg/mL
B3	> 10 µg/mL
B4	> 10 µg/mL
B5	> 10 µg/mL
B6	> 10 µg/mL
B7	> 10 µg/mL
B8	> 10 µg/mL
B9	> 10 µg/mL
B10	> 10 µg/mL
B11	> 10 µg/mL
B12	> 10 µg/mL

biological target: SARS-CoV-2 Omicron BA.5 spike pseudovirus; assay: as above
Description: as §1

Binder	pseudovirus neutralization IC50
B1	0.00587 µg/mL
B2	> 10 µg/mL
B3	> 10 µg/mL
B4	> 10 µg/mL
B5	> 10 µg/mL
B6	> 10 µg/mL
B7	> 10 µg/mL
B8	> 10 µg/mL
B9	> 10 µg/mL
B10	> 10 µg/mL
B11	> 10 µg/mL
B12	> 10 µg/mL

biological target: SARS-CoV-2 Omicron BQ.1.1 spike pseudovirus; assay: as above
Description: as §1

Binder	pseudovirus neutralization IC50
B1	0.674 µg/mL
B2	> 10 µg/mL
B3	> 10 µg/mL
B4	> 10 µg/mL
B5	> 10 µg/mL
B6	> 10 µg/mL
B7	> 10 µg/mL
B8	> 10 µg/mL
B9	> 10 µg/mL
B10	> 10 µg/mL
B11	> 10 µg/mL
B12	> 10 µg/mL

biological target: SARS-CoV-2 Omicron XBB spike pseudovirus; assay: as above
Description: as §1

Binder	pseudovirus neutralization IC50
B1	0.753 µg/mL
B2	> 10 µg/mL
B3	> 10 µg/mL
B4	> 10 µg/mL
B5	> 10 µg/mL
B6	> 10 µg/mL
B7	> 10 µg/mL
B8	> 10 µg/mL
B9	> 10 µg/mL
B10	> 10 µg/mL
B11	> 10 µg/mL
B12	> 10 µg/mL

biological target: SARS-CoV-2 early D614G spike pseudovirus; assay: as above
Description: as §1

Binder	pseudovirus neutralization IC50
B1	0.0369 µg/mL
B2	> 10 µg/mL
B3	0.221 µg/mL
B4	0.0247 µg/mL
B5	> 10 µg/mL
B6	> 10 µg/mL
B7	> 10 µg/mL
B8	> 10 µg/mL
B9	> 10 µg/mL
B10	0.573 µg/mL
B11	> 10 µg/mL
B12	0.0333 µg/mL
